Data set [1] can be described thus: general procedure: hybrid (solid and solution phase) peptide synthesis; CTC resin (fragments with C-terminal acid); Sieber amide resin (fragments with C-terminal amide); DIC/HOBt hydrate on solid phase (PyBOP, TOTU, TCTU for some couplings); TBTU, TO. The conditions noted are these: for step yield: recovery yield.
The nature of data set [2]: general procedure: hybrid (solid and solution phase) peptide synthesis; CTC resin; DIC/HOBt hydrate on solid phase (PyBOP, TOTU, TCTU for some couplings); TBTU, TO. The conditions noted are these: whole synthesis.
Data set [3] is described as follows: general procedure: hybrid (solid and solution phase) peptide synthesis; Sieber amide resin; DIC/HOBt hydrate on solid phase (PyBOP, TOTU, TCTU for some couplings); TBTU, TO. The conditions noted are these: whole synthesis.
The mark [4] stands for this setting: late stage modification step, HPLC.

Consider “Fmoc-Phe-Ile-Glu(OtBu)-^25Trp(Boc)-Leu-Lys(Boc)-Asn(Trt)-Gly-^30Gly-Pro-Ser(tBu)-Ser(tBu)-Gly-^35Ala-Pro-Pro-Pro-Ser(tBu)-NH2”, for which the “crude purity (method not given)” value in data set [1] (coupling step, HPLC) was determined as 89%. In data set [1] (coupling step), this substance gave a step yield of 100%.

Consider “Fmoc-^22Phe-Ile-Glu(tBu)-Trp(Boc)-Leu-^27Lys(Boc)-Asn(Trt)-Gly-Gly-Pro-^32Ser(tBu)-Ser(tBu)-Gly-Ala-^36Pro-Pro-Pro-^39Ser(tBu)-NH2”, for which the “crude purity (method not given)” value in data set [1] (coupling step, HPLC, run 1) was determined as 77.7%; in data set [1] (coupling step, HPLC, run 2), 89.5%. For the same substance, in data set [1] (coupling step), the step yield is on record as 99%.

Consider “Fmoc-^26Leu-Lys(Boc)-Asn(Trt)-^29Gly-Gly-Pro-Ser(tBu)-Ser(tBu)-^34Gly-Ala-Pro-Pro-^38Pro-OH”, for which the “crude purity (method not given)” value in data set [2] (HPLC) was found to be 93.4%.

In the case of “Fmoc-^27Lys(Boc)-Asn(Trt)-Gly-Gly-^31Pro-Ser(tBu)-Ser(tBu)-Gly-^35Ala-Pro-Pro-Pro-^39Ser(tBu)-NH2”, in data set [1] (coupling step, HPLC), the “crude purity (method not given)” value worked out at 89.92%. Besides, in data set [1] (coupling step), the step yield turned out to be 85%.

For “Fmoc-^27Lys(Boc)-Asn(Trt)-^29Gly-Gly-Pro-Ser(tBu)-Ser(tBu)-^34Gly-Ala-Pro-Pro-^38Pro-OH”, the “crude purity (method not given)” value in data set [1] (whole synthesis, HPLC) was found to be 73.35%.

As to “Fmoc-^30Gly-Pro-Ser(tBu)-Ser(tBu)-Gly-^35Ala-Pro-Pro-Pro-OH”, the crude mass in data set [2] (scale 19.9 mol) worked out at 23.2 kg. Further, the “crude purity (method not given)” value in data set [1] (whole synthesis, HPLC) amounted to 97%.

Turning to “Fmoc-^30Gly-Pro-Ser(tBu)-Ser(tBu)-Gly-^35Ala-Pro-Pro-Pro-Ser(tBu)-NH2”, the crude mass in data set [3] (scale 6 mmol) turned out to be 4.6 g. Further, the “crude purity (method not given)” value in data set [1] (coupling step, HPLC) was found to be 97%; in data set [1] (whole synthesis, HPLC), 78%. The substance further had a step yield in data set [1] (coupling step) of 92%. In data set [1] (whole synthesis, recovery yield based on target batch size of 6 mmol), this substance showed a crude yield of 60%.

With “Fmoc-^31Pro-Ser(tBu)-Ser(tBu)-Gly-^35Ala-Pro-Pro-Pro-^39Ser(tBu)-NH2”, in data set [1] (coupling step, HPLC), the “crude purity (method not given)” value came to 81%.

Turning to “Fmoc-^31Pro-Ser(tBu)-Ser(tBu)-Gly-^35Ala-Pro-Pro-^38Pro-OH”, in data set [1] (whole synthesis, HPLC), the “crude purity (method not given)” value amounted to 91.67%.

For “Fmoc-^32Ser(tBu)-Ser(tBu)-Gly-^35Ala-Pro-Pro-Pro-^39Ser(tBu)-NH2”, the “crude purity (method not given)” value in data set [1] (coupling step, HPLC) was found to be 100%. Moreover, the step yield in data set [1] (coupling step) was found to be 82%.

Consider “H-Phe-Ile-Glu(OtBu)-^25Trp(Boc)-Leu-Lys(Boc)-Asn(Trt)-Gly-^30Gly-Pro-Ser(tBu)-Ser(tBu)-Gly-^35Ala-Pro-Pro-Pro-Ser(tBu)-NH2”, for which the “crude HPLC purity” value in data set [1] (coupling step, HPLC) was 88%. In addition, the step yield in data set [1] (coupling step) is reported as 81%; in data set [1] (late stage modification step), 100%. Besides, in data set [1] (setting [4]), the “crude purity (method not given)” value is 87%.

For “H-^27Lys(Boc)-Asn(Trt)-Gly-Gly-^31Pro-Ser(tBu)-Ser(tBu)-Gly-^35Ala-Pro-Pro-Pro-^39Ser(tBu)-NH2”, in data set [1] (setting [4]), the “crude purity (method not given)” value amounted to 84.79%.

“H-^30Gly-Pro-Ser(tBu)-Ser(tBu)-Gly-^35Ala-Pro-Pro-Pro-Ser(tBu)-NH2” had a crude mass in data set [3] (scale 4 mmol) of 3.3 g. Further, the “crude purity (method not given)” value in data set [1] (setting [4]) worked out at 91%; in data set [1] (whole synthesis, HPLC), 93%. Moreover, the step yield in data set [1] (late stage modification step) is 99%. In data set [1] (whole synthesis, recovery yield based on target batch size of 4 mmol), this substance gave a crude yield of 60%.

On to “H-^31Pro-Ser(tBu)-Ser(tBu)-Gly-^35Ala-Pro-Pro-Pro-^39Ser(tBu)-NH2”, for which, in data set [1] (setting [4]), the “crude purity (method not given)” value worked out at 95.0%. The substance further registered a step yield in data set [1] (late stage modification step) of 99%.

Consider “H-^32Ser(tBu)-Ser(tBu)-Gly-^35Ala-Pro-Pro-Pro-^39Ser(tBu)-NH2”, for which the “crude purity (method not given)” value in data set [1] (setting [4]) was 100%.

These data come from patent US20110046349 (published 2011).
